From patent publication US20260137677A1, “PROTACS USEFUL AGAINST THE MAIN PROTEASE SARS-COV-2” (Tocris Cookson Limited, priority 2022, published 2026) come the findings set out here.

The structures given here were assigned with low confidence; some may be wrong.

In general, IC50 refers to the midpoint of a concentration-inhibition curve.

Experiment [1] relates to SARS-CoV-2 (SARS-CoV2/ZG/297-20) in Vero E6 cells. The experiment can be described thus: Antiviral assay in Vero E6 cells infected with SARS-CoV-2 (cell viability, Cell Titer Glo). Particulars: Vero E6, MOI 0.05; for Antiviral Activity 10 uM: 10 uM compound; for Antiviral Activity 50 uM: 50 uM compound. The procedure:
Vero E6 cells (2×10^4/well) were seeded in 96 well plates one day before the experiment. Pre-treatment, the medium was removed and compounds were added at concentrations varying from 0.1-100 μM. After 24 h incubation, the medium was removed and cells were infected with MOI 0.05 SARS-CoV-2 SARS-CoV2/ZG/297-20. After 1 h infection, the viruses were removed and the same concentration of compounds were added back into the cells. After 72 h incubation at 37° C., EC50 measurements were made using ATP quantification (Cell Titer Glo).
For orientation: Cellular ATP, detected with luciferase, serves as a proxy for viable cell number.

The target of experiment [2] is recombinant SARS-CoV-2 main protease (Mpro) (Severe acute respiratory syndrome coronavirus 2, UniProt P0DTD1). The experiment can be described thus: IC50 FRET assay, inhibition of recombinant SARS-CoV-2 main protease. As to conditions: Mpro 50 nM, substrate 10 μM.

In the case of `O=C1CCC(N2C(=O)c3cccc(NCCOCCOCCOCCOCCNC(=O)[C@H](NC(=O)[C@@H](c4cccnc4)N(C(=O)c4ccco4)c4ccc(-c5ccccc5)cc4)c4ccccc4)c3C2=O)C(=O)N1` (stereo partly drawn), in experiment [1], the “Antiviral Activity 10 uM” value is on record as “E (<0%=E)” and the “Antiviral Activity 50 uM” value is “E (<0%=E)”. Besides, the IC50 in experiment [2] is less than 1 µM.

Turning to `O=C1CCC(N2C(=O)c3cccc(NCCCCCCCCCCNC(=O)C(NC(=O)C(c4cccnc4)N(C(=O)c4ccco4)c4ccc5c(c4)oc4ccccc45)c4ccccc4)c3C2=O)C(=O)N1` (stereo not drawn), in experiment [1], the “Antiviral Activity 10 uM” value is reported as “E (<0%=E)” and the “Antiviral Activity 50 uM” value was “D (<25%=D)”. In addition, the IC50 in experiment [2] was greater than 25 µM.
